Laboratory results as given in patent publication US20160144013A1 (YALE UNIVERSITY, published 2016).

Experiments:
[1] = target: PltA (A subunit of typhoid toxin) (Salmonella enterica serovar Typhi)
[2] = target: PltB pentamer (homomeric B subunit of typhoid toxin) (Salmonella enterica serovar Typhi); assay: interface analysis of the crystal structure of the holotoxin
[3] = target: T1, PltB pentamer (homomeric B subunit of typhoid toxin) (Salmonella enterica serovar Typhi)
T1 chain: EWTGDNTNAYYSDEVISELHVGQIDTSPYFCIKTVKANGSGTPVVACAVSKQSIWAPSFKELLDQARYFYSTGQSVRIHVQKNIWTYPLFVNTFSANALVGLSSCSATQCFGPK

With CdtB (A subunit of typhoid toxin) the buried surface area [1] was 950 Å^2 and the ΔiG [1] was -5.2 kcal/mol.

For “PltA (A subunit of typhoid toxin) (enzyme)”, the buried surface area [2] was 1660 Å^2 and the ΔiG [2] was -17.7 kcal/mol.

B1: CdtB (A subunit of typhoid toxin) (enzyme)
chain: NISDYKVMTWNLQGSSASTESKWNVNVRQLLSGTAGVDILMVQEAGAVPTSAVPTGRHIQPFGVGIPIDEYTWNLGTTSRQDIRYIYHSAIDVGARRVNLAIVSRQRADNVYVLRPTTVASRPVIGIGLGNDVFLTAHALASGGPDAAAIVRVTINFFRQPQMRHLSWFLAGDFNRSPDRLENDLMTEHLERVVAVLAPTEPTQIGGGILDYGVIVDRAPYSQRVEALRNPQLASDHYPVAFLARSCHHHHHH
B1: no binding [3].
